Consider four compounds from US20240175865A1, “IMPROVED PROCESSES FOR RATIONALLY-DESIGNING AND PRODUCING BIOMOLECULES” (priority 2020, published 2024).

Type in all cases: binding
Common to all, as to conditions: 100 nM protein, pH 8.0, 20° C.

In test [1] the target is Yersinia enterocolitica TogB variant K94C, MDCC conjugate (parent TogB SEQ ID NO: 2) (Yersinia enterocolitica, UniProt A0ACH1C7V4, K99C).
Test [2] deals with Yersinia enterocolitica TogB variant F242C, MDCC conjugate (parent TogB SEQ ID NO: 2) (Yersinia enterocolitica, UniProt A0ACH1C7V4, F247C).
Test [3] concerns the target Yersinia enterocolitica TogB variant A279C, MDCC conjugate (parent TogB SEQ ID NO: 2) (Yersinia enterocolitica, UniProt A0ACH1C7V4, A284C).
In test [4] the target is Yersinia enterocolitica TogB variant K357C, MDCC conjugate (parent TogB SEQ ID NO: 2) (Yersinia enterocolitica, UniProt A0ACH1C7V4, K362C).

Structures are written as SMILES. Where two headings read alike, the source gives them in different places.

For the compound `O=C(O)[C@H]1O[C@H](O[C@@H]2[C@H](O)[C@@H](O)C(O)O[C@@H]2C(=O)O)[C@H](O)[C@@H](O)[C@H]1O` (stereo partly shown) [digalUA, digalacturonic acid], the “Response (change in peak fluorescence intensity)” value in test [1] (48 μM digalUA) is given as “N.C. (negligible change in fluorescence for a given condition (less than 10% change in fluorescence))”. For the same compound, the “Response (percentage change in peak fluorescence intensity)” value is on record as −10% in test [2] (48 μM digalUA), −31% in test [3] (48 μM digalUA) and −25% in test [4] (48 μM digalUA).
Take `O=C(O)[C@H]1OC(O)[C@H](O)[C@@H](O)[C@H]1O` (stereo partly shown) [galacturonic acid, Galacturonic acid]: the “Response (change in peak fluorescence intensity)” value in test [1] (1710 μM galacturonic acid), in test [2] (1710 μM galacturonic acid), in test [3] (1710 μM galacturonic acid) and in test [4] (1710 μM galacturonic acid) was “N.C. (negligible change in fluorescence for a given condition (less than 10% change in fluorescence))” in each case.
Consider `O=C(O)[C@H]1O[C@H](O[C@@H]2[C@H](O)[C@@H](O)[C@@H](O[C@@H]3[C@H](O)[C@@H](O)C(O)O[C@@H]3C(=O)O)O[C@@H]2C(=O)O)[C@H](O)[C@@H](O)[C@H]1O` (stereo partly shown) [trigalUA, trigalacturonic acid], for which, in test [1] (570 μM trigalUA), the “Response (change in peak fluorescence intensity)” value is on record as “N.C. (negligible change in fluorescence for a given condition (less than 10% change in fluorescence))”. The “Response (percentage change in peak fluorescence intensity)” value in test [2] (570 μM trigalUA) is on record as −20%; in test [3] (570 μM trigalUA), −30%; in test [4] (570 μM trigalUA) it was −29%.
As to `O=C(O)C1=C[C@H](O)[C@@H](O)[C@@H](O[C@@H]2[C@H](O)[C@@H](O)C(O)O[C@@H]2C(=O)O)O1` (stereo partly shown) [unsatdigalUA, 4,5-unsaturated digalacturonic acid], the “Response (change in peak fluorescence intensity)” value in test [1] (16 μM unsatdigalUA) is given as “N.C. (negligible change in fluorescence for a given condition (less than 10% change in fluorescence))”. For the same compound, the “Response (percentage change in peak fluorescence intensity)” value is given as −14% in test [2] (16 μM unsatdigalUA), −31% in test [3] (16 μM unsatdigalUA) and −32% in test [4] (16 μM unsatdigalUA).
